Anti-infective test results gathered from many reports (values: NIAID ChemDB through PubChem).

Shared fields: tests in culture; agent: Hepatitis C virus; read by: replicon; read-out: EC50

An empty or dashed field is not shown.

structure	strain	cells	setting	value
C[C@@]1(O)[C@H](O)[C@@H](CO)O[C@H]1n1cc(C#CCO)c2c(N)ncnc21	-	ET	-	>50 µM
NC(=S)NC1(c2ccc(Oc3ccccc3)cc2)CCCCC1	-	Huh7	-	<1 µM
Cc1ccccc1N1C(=O)/C(=C\c2ccc(-c3cccc(Cl)c3)o2)C(=O)N(c2ccccc2)C1=S	-	-	-	3.7 µM
Oc1ccc(Cl)cc1-c1cc(-c2ccccn2)on1	-	Huh7	-	>32 µM
CCCC(NC(=O)C1C2CCCC2CN1C(=O)[C@@H](NC(=O)OC(C)(C)C)C(C)(C)C)C(=O)C(=O)NC1CC1	1b	-	-	<100 µM
CNC(=O)c1c(-c2ccc(F)cc2)oc2cc(CN(C)C)c(OC(C)C)cc12	-	Huh7	-	<30 µM
COc1ccc(OCc2ccccc2)c(-c2ccn(-c3nccc(OC)c3OC)n2)c1	-	Huh7	-	>32 µM
CCNC(=O)c1ccc(N2CCN(S(=O)(=O)c3ccc(OC(F)(F)F)cc3)C(C(=O)NCc3ccc(OC(F)(F)F)cc3)C2)nn1	1a	-	-	0.22 µM
COc1cccc(-c2nc3ccn(Cc4ccc(Br)cc4)cc-3n2)c1	-	Huh 5-2	-	0.13 µg/mL
NC(=S)Nc1cccc(-c2ccccc2)c1	-	Huh7	-	<1 µM
CNC(=O)c1c(-c2ccc(F)cc2)oc2cc(-c3nocc3CCO)c(OC)cc12	-	Huh7	-	<1 µM
COc1ncc(OC)c(N2CCN(S(=O)(=O)c3ccc(OC(F)(F)F)cc3)C(C(=O)NCc3ccc(OC(F)(F)F)cc3)C2)n1	1a	-	-	2 µM
COc1cccc2c1C=C(C(=O)N1C3CCC1CN(C)C3)Cn1c-2c(C2CCCCC2)c2ccc(C(=O)NS(=O)(=O)N(C)C)cc21	-	-	-	0.001–0.5 µM
COc1ccccc1-c1ccnn1-c1ccccc1F	-	Huh7	-	27 µM
C=CC1CC1(NC(=O)[C@@H]1C[C@@H](Oc2cc(-c3ccccc3)nc3cc(OC)ccc23)CN1C(=O)[C@H](CC(C)C)N1CCCCC1)C(=O)NS(=O)(=O)C1CC1	1b	-	-	<100 µM
COc1ccc2c(c1)[C@@H]1C[C@]1(C(=O)N1[C@@H]3CC[C@H]1CN(C)C3)Cn1c-2c(C2CCCCC2)c2ccc(C(=O)N(C)S(=O)(=O)N(C)C)nc21	1b	-	-	0.5–10 µM
CNC(=O)c1c(-c2ccc(F)cc2)oc2cc(N3CCOCC3)c(OCc3nnc(-c4ccc(C)cc4)o3)cc12	-	Huh7	-	<10 µM
NC(=O)COc1ccc2c(c1)S(=O)(=O)N=C(c1c(O)c3cc(F)ccc3n(CCC3CC3)c1=O)N2	1b 66193	-	-	<0.001 µM
COc1ccc2c(c1)[C@@H]1C[C@]1(C(=O)N1C3CCC1CN(C)C3)Cn1c-2c(C2CCCCC2)c2ccc(C(=O)N(C)S(=O)(=O)N(C)C)cc21	1b	-	-	0.001–0.5 µM
CC#Cc1cn([C@@H]2O[C@H](CO)[C@@H](O)[C@@]2(C)O)c2ncnc(N)c12	-	ET	-	>50 µM
CCCCCCC12CCCC(c3ccc(NC(N)=S)cc3)(CC1)CC2	-	Huh7	-	<1 µM
O=C(Nc1ccnc(-c2cc(-c3c(Cl)cccc3Cl)no2)c1)C(Cl)Cl	-	-	-	0.02988 µM
CCN(CC)c1cc2oc(-c3ccc(F)cc3)c(C(=O)NC)c2cc1OC(C)C	-	Huh7	-	<1 µM
COc1ccccc1-c1nnc(-c2ccccc2O)o1	-	Huh7	-	>32 µM
Brc1ccc(Cn2cc3nc(-c4ccccc4)nc-3c(Br)c2)cc1	-	Huh 5-2	-	<0.62 µg/mL
COc1ccc2c(c1)C=C(C(=O)N1C3CCC1CN(C1CC1)C3)Cn1c-2c(C2CCCCC2)c2ccc(C(=O)NS(=O)(=O)N(C)C)cc21	-	-	-	0.001–0.5 µM
CNS(=O)(=O)NC(=O)c1ccc2c(C3CCCCC3)c3n(c2c1)CC1(C(=O)N2[C@@H]4C[C@H]2CN(C)C4)CC1c1cc(OC)ccc1-3	1b	-	-	0.001–0.5 µM
NC(=S)Nc1cccc(OCc2ccccc2)c1	-	Huh7	-	<1 µM
COc1cccc(N2C(=O)/C(=C/c3ccc(-c4ccc(Cl)cc4)o3)C(=O)N(c3cccc4ccccc34)C2=S)c1	-	-	-	18.7 µM
COc1ccc2c(c1)C1CC1(C(=O)N1[C@@H]3C[C@H]1CN(C(=O)OCc1ccccc1)C3)Cn1c-2c(C2CCCCC2)c2ccc(C(=O)NS(=O)(=O)N(C)C)cc21	1b	-	-	0.001–0.5 µM
CCCC(NC(=O)C1C2CCCC2CN1C(=O)[C@@H](C)N1CCCCC1)C(=O)C(=O)NC1CC1	1b	-	-	<100 µM
CNC(=O)c1c(-c2ccc(F)cc2)oc2cc(S(=O)(=O)N(C)C)c(OC(C)C)cc12	-	Huh7	-	<30 µM
COc1ccc2c(c1)[C@H]1C[C@@]1(C(=O)N1[C@@H]3C[C@H]1CN(C)C3)Cn1c-2c(C2CCCCC2)c2ccc(C(=O)NS(=O)(=O)N(C)C)cc21	1b	-	-	0.001–0.5 µM
CCC(C)S(=O)(=O)NC(=O)c1ccc2c(C3CCCCC3)c3n(c2c1)CC(C(=O)N1C2CCC1CN(C)C2)=Cc1cc(OC)ccc1-3	-	-	-	0.001–0.5 µM
CCOC(=O)[C@]12C[C@@H]1/C=C\CCCCC[C@H](N1CCCCC1)C(=O)N1C[C@H](Oc3cc(-c4ccccc4)nc4cc(OC)ccc34)C[C@H]1C(=O)N2	1b	-	-	<100 µM
COc1ccc2c(c1)C=C(C(=O)N1C3CCC1CN(C)C3)Cn1c-2c(C2CCCCC2)c2ccc(C(=O)NS(=O)(=O)N(C)C)cc21	-	-	-	0.001–0.5 µM
CNC(=O)c1c(-c2ccc(F)cc2)oc2cc(N(CC(C)=O)S(C)(=O)=O)c(O)cc12	-	Huh7	-	<10 µM
CCCC(NC(=O)C1C2CCCC2CN1C(=O)C(C)N1CCN(C(=O)OC(C)(C)C)CC1)C(=O)C(=O)NC1CC1	1b	-	-	<100 µM
CNS(=O)(=O)NC(=O)c1ccc2c(C3CCCCC3)c3n(c2n1)CC(C(=O)N1C[C@@H](C)O[C@@H](C)C1)=Cc1cc(OC)ccc1-3	1b	-	-	0.001–0.5 µM
CNC(=O)c1c(-c2ccc(F)cc2)oc2cc(N(CCOC(F)(F)F)S(C)(=O)=O)c(OC)cc12	-	Huh7	-	<1 µM
C=CC1CC1(NC(=O)[C@@H]1C[C@@H](Oc2cc(-c3ccccc3)nc3cc(OC)ccc23)CN1C(=O)[C@H](C1CCCCC1)N1CCCCC1)C(=O)OCC	1b	-	-	<100 µM
Cc1cc(-c2ccccc2O)n(-c2ccccc2[N+](=O)[O-])n1	-	Huh7	-	>19 µM
CCCCCCCOc1ccc(NC(N)=S)cc1C(F)(F)F	-	Huh7	-	<1 µM
CCC[C@H](NC(=O)[C@@H]1[C@H]2CCC[C@H]2CN1C(=O)[C@@H](NC(=O)[C@@H](NC(=O)c1cnccn1)C1CCCCC1)C(C)(C)C)C(=O)C(=O)NC1CC1	-	Huh7	10% human serum	0.88 µM
COc1ccc2c(c1)C=C(C(=O)N1CC3CCC(C1)N3C)Cn1c-2c(C2CCCCC2)c2ccc(C(=O)NS(=O)(=O)N(C)C)cc21	-	-	-	0.001–0.5 µM
C=CC1CC1(NC(=O)[C@@H]1C[C@@H](Oc2cc(-c3ccccc3)nc3cc(OC)ccc23)CN1C(=O)[C@H](C)N1CCCCC1)C(=O)OCC	1b	-	-	<100 µM
Nc1ccc(-c2noc(-c3cc(Br)ccc3O)n2)nc1	-	Huh7	-	>32 µM
NC(=S)NC1(c2ccc(Oc3ccccc3)cc2)CCCC1	-	Huh7	-	<1 µM
CCNC(=O)c1cc(-c2ccc(OC)cc2)nn1-c1ncccc1[N+](=O)[O-]	-	Huh7	-	>32 µM
CCCC(NC(=O)C1C2CCCC2CN1C(=O)C(C)N1CCCC1)C(=O)C(=O)NC1CC1	1b	-	-	<100 µM
NC(=S)Nc1ccc(N2CCc3ccccc3C2)c(F)c1	-	Huh7	-	<1 µM

Repeating the final 3 entries:

{"structure": "CCNC(=O)c1cc(-c2ccc(OC)cc2)nn1-c1ncccc1[N+](=O)[O-]", "cells": "Huh7", "value": ">32 µM"}
{"structure": "CCCC(NC(=O)C1C2CCCC2CN1C(=O)C(C)N1CCCC1)C(=O)C(=O)NC1CC1", "strain": "1b", "value": "<100 µM"}
{"structure": "NC(=S)Nc1ccc(N2CCc3ccccc3C2)c(F)c1", "cells": "Huh7", "value": "<1 µM"}

a–b is a range or a potency band. Rows are shuffled and stem from different studies. ECn: concentration that inhibits the pathogen or its effect by n%.